This note sets out measurements from ChEMBL document CHEMBL5625167, “In vitro bioevaluation and docking study of dihydrosphingosine and ethambutol analogues against sensitive and multi-drug resistant Mycobacterium tuberculosis” (Eur J Med Chem, 2023).

A short description of data set [1]: Selectivity index, ratio of CC50 for mouse J774.A1 cells to MIC for isoniazid, rifampicin, ethambutol and pyrazinamide sensitive Mycobacterium tuberculosis H37Rv ATCC 25618.
For data set [2], the system named is Mycobacterium tuberculosis. Nature of the data set: Potency index, ratio of ethambutol MIC to test compound MIC for antimycobacterial activity against isoniazid, rifampicin, ethambutol, streptomycin and levofloxacin resistant Mycobacterium tuberculosis clinical isolate 1576 incubated for 7 days by resazurin dye based colorimetric method analysis. Conditions: time 7 day.

Data set [3] can be described thus: Selectivity index, ratio of CC50 for African green monkey Vero cells to MIC for isoniazid, rifampicin, ethambutol and pyrazinamide sensitive Mycobacterium tuberculosis H37Rv ATCC 25618.
A short description of data set [4]: Selectivity index, ratio of CC50 for human HepG2 cells to MIC for isoniazid, rifampicin, ethambutol and pyrazinamide sensitive Mycobacterium tuberculosis H37Rv ATCC 25618.

Some results are limits rather than exact numbers.

On to `CCCCCCCCCCCCCCCC(CN)NC(=O)OC(C)(C)C` (stereo not drawn), for which the Selectivity Index in data set [1] turned out to be 0.29; in data set [3], 1.24. For the same compound, in data set [2], the Ratio was found to be 164.
The matching figures for `CCCCCCCCCCCCCCCCCCCC(CN)NC(=O)OC(C)(C)C` (stereo not drawn): 1.12, 1.61 and 45.
With `CCCCCCCCCCCC(N)CO` (stereo not drawn), the Selectivity Index worked out at 0.04 in data set [1] and 0.64 in data set [3]. For the same compound, the Ratio in data set [2] turned out to be 90.
Take `CCCCCCCCCCCCCCCCCC(N)CO` (stereo not drawn): the Selectivity Index in data set [1] came to 1.21; in data set [4], 24.9; in data set [3], 6.65. Further, the Ratio in data set [2] was 360.
Consider `CCCCCCCCCCCCCCCCCC(CN)NC(=O)OC(C)(C)C` (stereo not drawn), for which the Selectivity Index worked out at 1.91 in data set [1], 7.19 in data set [4] and 1.11 in data set [3]. Further, the Ratio in data set [2] was determined as 180.
Take `CCCCCCCCCCCCCCCC(CO)NCCCCCC` (stereo not drawn): the Selectivity Index in data set [1] came to 0.37; in data set [3], 1.77. Also, the Ratio in data set [2] is 45.
As to `CCCCc1ccc(CCCCCC(CO)NC(=O)OC(C)(C)C)cc1` (stereo not drawn), the Selectivity Index in data set [1] came out at 0.22; in data set [3], 0.8. For the same compound, the Ratio in data set [2] is 180.
For the compound `CCCCCCCCCCCC(CO)N(CC)CC` (stereo not drawn), the Selectivity Index in data set [1] was 0.28; in data set [3] it was 0.57. Moreover, the Ratio in data set [2] is 90.
On to `CC[C@@H](CO)NCCN[C@@H](CC)CO` [ETHAMBUTOL], for which the Selectivity Index was more than 401 in data set [1], more than 401 in data set [4] and 178 in data set [3].
`CCCCCCCCCCCCCCCC(CN=[N+]=[N-])NC(=O)OC(C)(C)C` (stereo not drawn): the Selectivity Index was less than 1.63 in data set [1] and less than 1 in data set [3]. Also, the Ratio in data set [2] was 180.
With `CCCCc1ccc(CCCCCCCCCC(N)CO)cc1` (stereo not drawn), the Selectivity Index is 1.47 in data set [1], 5.71 in data set [4] and 3.17 in data set [3]. In addition, in data set [2], the Ratio was 1440.
With `CCCCCCCCCCCCCCCC(CO)N(CCCC)CCCC` (stereo not drawn), the Selectivity Index was determined as 2.8 in data set [1], 10.3 in data set [4] and 5.9 in data set [3]. Also, the Ratio in data set [2] turned out to be 360.
As for `CCCCCCCCCCCCCCCC(CNCCCCCC)NC(=O)OC(C)(C)C` (stereo not drawn), the values for the Selectivity Index in data set [1], in data set [4] and in data set [3] were 2.59, 10.8 and 2.86, respectively. The Ratio in data set [2] was 360.
`CCCCCCCCCCCCCCCC(CO)NCCCC` (stereo not drawn): the figures for the Selectivity Index in data set [1] and in data set [3] were 0.37 and 1.15, respectively. In addition, in data set [2], the Ratio amounted to 45.
Turning to `CCCCCCCCCCCC(CNCC)NC(=O)OC(C)(C)C` (stereo not drawn), the figures for the Selectivity Index in data set [1] and in data set [3] were 0.33 and 0.51, respectively. Also, in data set [2], the Ratio worked out at 45.
Take `CCCCCCCCCCCCCCCC(CO)NCCCCCCCCCC` (stereo not drawn): the Selectivity Index in data set [1] was determined as 0.86; in data set [3], 1.62. The Ratio in data set [2] turned out to be 45.
For the compound `CCCCCCCCCCCCCCCC(CO)N(CC)CC` (stereo not drawn), the Selectivity Index is 5.83 in data set [1] and 6.27 in data set [3].
For `CCCCCCCCCCCCCCCC(CNCC(=O)OCC)NC(=O)OC(C)(C)C` (stereo not drawn), the figures for the Selectivity Index in data set [1] and in data set [3] were 0.87 and 1.22, respectively. Moreover, the Ratio in data set [2] came out at 90.
Take `CCCCCCCCCCCC(CO)NCC` (stereo not drawn): the Selectivity Index was less than 0.16 in data set [1] and less than 0.58 in data set [3]. Also, in data set [2], the Ratio came to 45.
The matching figures for `CCCCCCCCCCCC(CO)NCCCC` (stereo not drawn): 0.67, 0.81 and 90.
For `CCCCc1ccc(CCCCCCCC(CO)NC(=O)OC(C)(C)C)cc1` (stereo not drawn), the Selectivity Index amounted to 0.4 in data set [1] and 0.88 in data set [3]. The Ratio in data set [2] came to 180.
The matching figures for `CCCCCCCCCCCCCCCCCC(N)COCc1ccccc1` (stereo not drawn): 1.46, 2.15 and 45.
With `CCCCCCCCCCCCCCCC(CNCC)NC(=O)OC(C)(C)C` (stereo not drawn), the figures for the Selectivity Index in data set [1], in data set [4] and in data set [3] were 1.24, 6.69 and 1.11, respectively. In data set [2], the Ratio was 180.
On to `CCCCCCCCCCCCCCCC(N)CN` (stereo not drawn), for which the Selectivity Index in data set [1] is less than 3.39; in data set [3] it was less than 3. Also, the Ratio in data set [2] came to 7.
Regarding `CCCCCCCCCCCCCCCC(COCc1ccccc1)NCC` (stereo not drawn), the Selectivity Index worked out at 1.35 in data set [1], 14.8 in data set [4] and 1.63 in data set [3]. Moreover, in data set [2], the Ratio worked out at 180.
As for `CCCCCCCCCCCCCCCC(N)COCc1cc(OC)c(OC)c(OC)c1` (stereo not drawn), the values for the Selectivity Index in data set [1], in data set [4] and in data set [3] were 14.9, 18.6 and 2.21, respectively. Moreover, the Ratio in data set [2] was found to be 360.
`CCCCCCCCCCCCCCCC(CNCCCC)NC(=O)OC(C)(C)C` (stereo not drawn): the results for the Selectivity Index in data set [1], in data set [4] and in data set [3] were 2.65, 17 and 2.54, respectively. Further, the Ratio in data set [2] came out at 360.
As to `CCCCCCCCCCCCCCCCCCCC(COCc1ccccc1)NCC` (stereo not drawn), the Selectivity Index was 3.27 in data set [1], 5.94 in data set [4] and 4.24 in data set [3]. The Ratio in data set [2] is 180.
Turning to `CCCCCCCCCCCCCCCCCCCC(CO)N(CC)CC` (stereo not drawn), the Selectivity Index in data set [1] is less than 1.59; in data set [3], less than 1.83. Besides, the Ratio in data set [2] was less than 46.
On to `CCCCCCCCCCCCCCCC(N)COCc1ccccc1` (stereo not drawn), for which the Selectivity Index amounted to 1.32 in data set [1], 22 in data set [4] and 9.37 in data set [3]. Also, the Ratio in data set [2] was 640.
For `CCCCCCCCCCCCCCCC(N)CO` (stereo not drawn), the figures for the Selectivity Index in data set [1], in data set [4] and in data set [3] were 6.71, 85.1 and 82.2, respectively. Moreover, the Ratio in data set [2] amounted to 950.
Regarding `CCCCCCCCCCCCCCCCCC(CO)NCCCC` (stereo not drawn), the Selectivity Index was determined as 0.97 in data set [1] and 4.61 in data set [3]. Further, the Ratio in data set [2] was determined as 90.
In the case of `CCCCc1ccc(CCCCCCCCCC(CO)NC(=O)OC(C)(C)C)cc1` (stereo not drawn), the results for the Selectivity Index in data set [1] and in data set [3] were 0.49 and 0.97, respectively. The Ratio in data set [2] turned out to be 180.
As to `CCCCCCCCCCCCCCCCCC(CO)NCC` (stereo not drawn), the Selectivity Index stood at 8.44 in data set [1], 12 in data set [4] and 1.47 in data set [3]. Further, in data set [2], the Ratio was determined as 180.
Consider `CCCCCCCCCCCCCCCCCCCC(CNCC)NC(=O)OC(C)(C)C` (stereo not drawn), for which the Selectivity Index was 1.18 in data set [1], 39.4 in data set [4] and 8.43 in data set [3]. Further, the Ratio in data set [2] is 720.
Regarding `CCCCCCCCCCCCCCCC(N)CNCC` (stereo not drawn), the values for the Selectivity Index in data set [1] and in data set [3] were 0.8 and 1.25, respectively. Moreover, the Ratio in data set [2] was 180.
In the case of `CCCCCCCCCCCCCCCC(COCc1ccccc1)NCCCCCC` (stereo not drawn), the results for the Selectivity Index in data set [1] and in data set [3] were 0.85 and 0.84, respectively. Besides, the Ratio in data set [2] worked out at 45.
Turning to `CCCCCCCCCCCCCCCCCC(CO)N(CC)CC` (stereo not drawn), the Selectivity Index in data set [1] is less than 0.77; in data set [3], less than 1.34. Further, in data set [2], the Ratio is less than 45.
As for `CCCCc1ccc(CCCCCC(N)CO)cc1` (stereo not drawn), the results for the Selectivity Index in data set [1] and in data set [3] were 0.17 and 0.43, respectively. For the same compound, in data set [2], the Ratio came out at 45.
On to `CCCCCCCCCCCCCCCCCCCC(N)COCc1ccccc1` (stereo not drawn), for which the values for the Selectivity Index in data set [1] and in data set [3] were 0.72 and 3.93, respectively. In addition, in data set [2], the Ratio stood at 90.
For the compound `CCCCc1ccc(CCCCCCCC(N)CO)cc1` (stereo not drawn), the Selectivity Index in data set [1] turned out to be 2.65; in data set [4], 6.35; in data set [3] it was 5.31. Also, the Ratio in data set [2] turned out to be 1440.
As to `CCCCCCCCCCCCCCCC(CO)NCC` (stereo not drawn), the results for the Selectivity Index in data set [1] and in data set [3] were 1.43 and 1.73, respectively. The Ratio in data set [2] turned out to be 90.
Take `CCCCCCCCCCCCCCCCCC(COCc1ccccc1)NCCCCCC` (stereo not drawn): the Selectivity Index in data set [1] turned out to be 1.85; in data set [3] it was 1.88. Besides, in data set [2], the Ratio came to 45.
